Compound potency records, mixed from different reports. Data source: NIAID ChemDB in PubChem.

Shared fields: whole-cell or culture tests; organism: HIV-1; read-out: inhibition

Percent inhibition refers to the dose given; in toxicity tests it is the harm to the cells. Two numbers with a dash give a range or band. Conditions beyond the fields shown may differ between rows. An empty or dashed field is not shown.

SMILES	method	mutations	strain or isolate	cells	tested at	result
C[S+](CC[C@H](N)C(=O)[O-])C[C@H]1O[C@@H](n2cnc3c(N)ncnc32)[C@H](O)[C@@H]1O	p24		IIIB	PBMC	100 µg/mL	60%
NC1=NS(=O)(=O)N([C@H]2CS[C@@H](CO)O2)C=C1			RF	MT-4	100 µg/mL	0%
S=C(NCCc1ccc(Cl)cc1)Nc1nccs1	cytopathic effect / XTT			MT-4	100 µg/mL	71–73%
CC(C)(C)n1[nH]c(C(F)(F)F)cc(=O)c1=O	MTT			TZM-bl	10 µM	-11.6%
CN(C(=O)[C@H](Cc1ccccc1)NC(=O)CN1C(=O)NC2(CCCCC2)C1=O)c1ccccc1	fluorescence		NL4-3		20 µM	89%
CCCCSC1=NC(c2c(O)c3c(c4c(C(C)C)cc(=O)oc24)OC(C)(C)C=C3)C=NN1	RT activity / visual reading		899A	MT-4	50 µM	16%
O=C(NCCc1ccccc1)Nc1nc(C(F)(F)F)cs1	RT activity			MT-4	1 µg/mL	97%
O=C(NCc1ccc(F)cc1)c1c(C(F)(F)F)[nH]n(CC2CCCO2)c(=O)c1=O	MTT			TZM-bl	10 µM	-3.02%
CC(=O)N[C@@H](CCC(N)=O)C(=O)N[C@@H](C)C(=O)N[C@@H](CC(C)C)[C@@H](O)CC(=O)N[C@H](C(N)=O)C(C)C	ELISA / antigen		IIIB	MT-4	200 µM	40%
Cc1ccc(C)c2c1NC(=O)C2CC(=O)N[C@@H](Cc1ccccc1)C(=O)N(C)c1ccc(F)cc1	fluorescence		NL4-3		20 µM	70%
C=C1C[C@@H](CO)O[C@H]1n1ccc(N)nc1=O				H9	100 µM	0%
CCOP(=O)(CCCC(O)n1cc(-n2c[n+](C)c(=O)[nH]c2=O)nn1)OCC			IIIB	CEM	100 µM	0%
C[C@H](CCC(=O)O)[C@H]1CC[C@H]2[C@@H]3CC[C@@H]4C[C@H](O)CC[C@]4(C)[C@H]3C[C@H](O)[C@]12C	syncytia		IIIB	H9	10 µg/mL	84.8%
Nc1ccnc(N2CCC[C@H]2CO)n1	visual reading / cell fusion		IIIB	CEM-SS	10 µM	0%
CCOP(=O)(Cn1cc(-n2ccc(=O)[nH]c2=O)nn1)OCC			IIIB	CEM	100 µM	0%
Cc1cn([C@H]2C[C@H](O)[C@@H](COC(=O)CCCCCCCCCCN=[N+]=[N-])O2)c(=O)[nH]c1=O	cytopathic effect / XTT			CEM	2 µM	6.5%
C=C(C)[C@@H]1CC[C@]2(C(=O)NCCCCCCCC(=O)N[C@@H](CC(C)C)[C@@H](O)CC(=O)O)CC[C@]3(C)[C@H](CC[C@@H]4[C@@]5(C)CC[C@H](O)C(C)(C)[C@@H]5CC[C@]43C)[C@@H]12	syncytia	GP41-L91H	LAI	HeLa P4 + HeLa	10 µM	28%
Cc1cn([C@H]2CC[C@@H](CO)O2)c(=O)nc1N1C[C@H](O)[C@@H](O)C1	XTT / cell fusion		IIIB	CEM-SS	10 µM	1.1%
O=C(NCCc1ccccc1)Nc1cncc(Cl)n1	cytopathic effect / XTT			MT-4	10 µg/mL	49–100%
O=c1nc(N2C[C@H](O)[C@@H](O)C2)ccn1[C@H]1C[C@@H](O)[C@@H](CO)O1	visual reading / cell fusion		IIIB	CEM-SS	10 µM	7.7%
O=C(NCc1ccc(F)cc1)c1c(C(F)(F)F)[nH]n(Cc2cccs2)c(=O)c1=O	MTT			TZM-bl	10 µM	-7.5%
C[n+]1cn(-c2cn(CCP(=O)(O)O)nn2)c(=O)[nH]c1=O			IIIB	CEM	100 µM	0%
OC[C@H]1O[C@@H](n2cnc3c(N4CCC(F)(F)C4)ncnc32)C[C@H]1O	XTT / cell fusion		IIIB	CEM-SS	10 µM	0%
CCOc1ccccc1CCNC(=S)Nc1nccs1	cytopathic effect / XTT			MT-4	100 µg/mL	100%
Nc1nc(Cl)c2nnn([C@@H]3C[C@H](CO)[C@H](O)[C@@H]3O)c2n1	cytopathic effect			CEM-V/MT-2 + CEM	125 µg/mL	0%
OCCN1CC[C@H](O)[C@@H](O)C1	cytopathic effect		BRU	CEM + CEM-SS	10 µg/mL	48%
Fc1cccc(Cl)c1CCNC(=S)Nc1nccs1	cytopathic effect / XTT			MT-4	1 µg/mL	98–100%
C[C@]1(O)CCN(Cc2ccccc2)C[C@@H]1O	cytopathic effect		BRU	CEM + CEM-SS	100 µg/mL	4.3%
O=C(O)[C@H]1O[C@@H](Oc2cc(O)cc(/C=C/c3ccc(O)cc3)c2)[C@H](O)[C@@H](O)[C@@H]1O	RT activity		IIIB	PBMC	300 µM	6.6%
CC(C)(C)NC(=O)[C@@H]1CCCN1C(=O)[C@@H](O)[C@H](Cc1ccccc1)NC(=O)[C@H](CC(N)=O)NC(=O)OCc1ccccc1	RT activity		pNL432	MOLT-4	20 µM	75%
Nc1ccn([C@@H]2C=C(F)[C@H](CO)O2)c(=O)n1	PCR		BRU-184V	PBMC	68.4 µM	90%
C=CCNC(=O)NC1=CSC2=NC(=O)C3(NN12)c1ccccc1-c1ccccc13	cytopathic effect / XTT			CEM	63 µM	16.15%
O=C(NCCc1ccccc1)Nc1nc2ccc(F)cc2s1	RT activity			MT-4	0.1 µg/mL	1%
c1ccc2c(-c3ccc(-c4ccc(-c5ccc(-c6cccc7ccccc67)s5)c5ccccc45)s3)cccc2c1	p24 / ELISA / antigen		IIIB	C8166	2 µM	47.06%
CCOC(=O)P(=O)(O)OC[C@H]1O[C@@H](n2cc(C)c(=O)[nH]c2=O)C[C@@H]1N=[N+]=[N-]	RT activity			CD4/T + CD4	100 µM	100%
Nc1nc(Cl)c2ncn([C@@H]3C[C@H](CO)[C@@H](O)[C@@H]3O)c2n1	cytopathic effect			CEM-V/MT-2 + CEM	125 µg/mL	0%
CC(S)C(=O)NCC(=O)O	p24 / antigen			H9	600 µg/mL	74%
CN1CC[C@H](O)[C@@H](O)C1	cytopathic effect		BRU	CEM + CEM-SS	100 µg/mL	6.1%
Cc1cn([C@H]2C[C@@H](O)[C@@H](CO)O2)c(=O)nc1N1C[C@H](O)[C@@H](O)C1	XTT / cell fusion		IIIB	CEM-SS	10 µM	7.9%
NC1=NNC2(C(N)=N1)c1ccccc1-c1ccccc12	cytopathic effect / XTT			CEM	20 µM	17.87%
Cc1ccc(C)c2c1NC(=O)C2CC(=O)N[C@@H](Cc1ccccc1)C(=O)N(C)c1ccc(Cl)cc1	fluorescence		NL4-3		2 µM	10%
Nc1ncnc2c1ncn2C1CC(F)C(COP(=O)(O)OC2C(O)C(COP(=O)(O)OC3C(O)C(CO)OC3n3cnc4c(N)ncnc43)OC2n2cnc3c(N)ncnc32)O1	syncytia			SupT1 + Sup-T1	300 µM	85%
CC(=O)c1ccc(-c2cc3oc(=O)cc(C(C)C)c3c3c2C=CC(C)(C)O3)s1	RT activity / visual reading		899A	MT-4	50 µM	13%
CC(c1ccccc1)N1CC[C@H](O)[C@@H](O)C1	cytopathic effect		BRU	CEM + CEM-SS	100 µg/mL	5.2%
Nc1ncnc2c1ncn2C1OC(COP(=O)(O)OC2C(O)C(COP(=O)(O)OC3C(O)C(CO)OC3n3cnc4c(N)ncnc43)OC2n2cnc3c(N)ncnc32)C(F)C1Cl	syncytia			SupT1 + Sup-T1	300 µM	50%
CCCCCCCCCCCCCC(=O)OC[C@H]1O[C@@H](n2cc(C)c(=O)[nH]c2=O)C[C@@H]1O	cytopathic effect / XTT			CEM	2 µM	13.7%
Nc1ncnc2c1ncn2COCCOP(=O)([O-])O[C@@H]1C[C@@H](COP(=O)([O-])O[C@@H]2C[C@@H](COP(=O)([O-])O[C@@H]3C[C@@H](CO)O[C@H]3n3cnc4c(N)[n+](Cc5ccccc5)cnc43)O[C@H]2n2cnc3c(N)ncnc32)O[C@H]1n1cnc2c(N)ncnc21	syncytia			SupT1 + Sup-T1	0.01 µM	0%
NC1=NS(=O)(=O)N(Cc2ccccc2)c2c1ncn2[C@H]1CS[C@@H](CO)O1			RF	MT-4	100 µg/mL	0%
Nc1nc2c(ncn2[C@@H]2C[C@H](CO)[C@H](O)[C@@H]2O)c(=O)[nH]1	cytopathic effect			CEM-V/MT-2 + CEM	125 µg/mL	0%
CN1C2N=CN=C(N)C2=NC1c1cn(CP(=O)(O)O)nn1			IIIB	CEM	100 µM	0%
CC1=CN([C@@H]2CS[C@@H](CO)O2)S(=O)(=O)NC1=O			RF	MT-4	100 µg/mL	0%
O[C@H]1CCN(Cc2ccccc2)C[C@@H]1O	cytopathic effect		BRU	CEM + CEM-SS	100 µg/mL	6.8%
Nc1nc(NC2CC2)c2ncn([C@H]3C=C[C@@H](CO)C3)c2n1	p24		SBH Clinical isolate	PBMC	0.25 µM	4%
CC(=O)N[C@@H](CCC(N)=O)C(=O)N[C@@H](C)C(=O)N[C@@H](CC(C)C)[C@@H](O)CC(=O)N[C@H](C(=O)N[C@H](C(N)=O)C(C)C)C(C)C	ELISA / antigen		IIIB	MT-4	200 µM	20%
OC[C@H]1O[C@@H](n2cnc3c(N4C[C@@H](O)[C@H](O)C4)ncnc32)C[C@H]1O	visual reading / cell fusion		IIIB	CEM-SS	10 µM	4.3%
Nc1ncnc2c1ncn2COCCOP(=O)([O-])O[C@@H]1[C@H](O)[C@@H](COP(=O)([O-])O[C@@H]2[C@H](O)[C@@H](COP(=O)([O-])O[C@@H]3[C@H](O)[C@@H](CO)O[C@H]3n3cnc4c(NCc5ccccc5)ncnc43)O[C@H]2n2cnc3c(N)ncnc32)O[C@H]1n1cnc2c(N)ncnc21	syncytia			SupT1 + Sup-T1	100 µM	63%
CN(C(=O)[C@H](Cc1ccccc1)NC(=O)Cc1cccc2ccccc12)c1ccc(Cl)cc1	fluorescence		NL4-3		20 µM	100%
O=C(NCCc1ccccc1)Nc1nc2ccc(Cl)cc2s1	RT activity			MT-4	1 µg/mL	1%
CC(C)C[C@H](NC(=O)c1ccc(NC(=O)[C@@H](N)Cc2c[nH]c3ccccc23)c(OCCc2c[nH]c3ccccc23)c1)C(=O)O	luciferase / cell fusion		NL4-3	TZM-bl	50 µM	2%
COc1ccc(N(C)C(=O)[C@H](Cc2ccccc2)NC(=O)CN2C(=O)NC3(CCCCC3)C2=O)cc1	fluorescence		NL4-3		20 µg/mL	93%
Cc1cc(C)c(S(=O)(=O)OCC2OC3OC4C(CO)OC(OC5C(CO)OC(OC6C(CO)OC(OC7C(CO)OC(OC8C(CO)OC(OC9C(C[n+]%10ccccc%10)OC(OC2C(O)C3O)C(O)C9O)C(O)C8O)C(O)C7O)C(O)C6O)C(O)C5O)C(O)C4O)c(C)c1	syncytia		LAV-1	MOLT-4	42 µg/mL	100%
CN(C(=O)[C@H](Cc1ccccc1)NC(=O)CN1C(=O)NC2(CCCCC2)C1=O)c1cccc(Br)c1	fluorescence		NL4-3		20 µM	36%
CCOCn1c2c(c(=O)[nH]c1=O)-c1ccccc1CC2			IIIB	C8166	5 µM	41%
CC(C)c1cc(=O)oc2c(C3C=NNC(SCc4ccccc4)=N3)c(O)c3c(c12)OC(C)(C)C=C3	RT activity / visual reading		899A	MT-4	50 µM	32%
O[C@H]1OC[C@H](Cc2ccc3c(c2)OCO3)[C@H]1Cc1ccc2c(c1)OCO2	p24		IIIB	H9	0.05 µM	0%
C=CCNC(=O)NC(=O)CSC1=NNC2(C(=O)N1)c1ccccc1-c1ccccc12	cytopathic effect / XTT			CEM	63 µM	15.14%
Cc1cn(C2C[C@H](CO)[C@@H](CO)C2)c(=O)[nH]c1=O	RT activity		IIIB	H9	10 µg/mL	33%
C[C@H](CCC(=O)N[C@@H](Cc1cc(I)c(O)cc1I)C(=O)O)[C@H]1CC[C@H]2[C@@H]3CCC4C[C@H](O)CC[C@]4(C)[C@H]3C[C@H](O)[C@]12C	syncytia		IIIB	H9	0.001 µg/mL	67.4%
Nc1ncnc2c1ncn2C1CC(CO)C1	cytopathic effect		IIIB	ATH8	20 µM	0%
CC1C[C@H](O)[C@@H](O)CN1Cc1ccccc1	cytopathic effect		BRU	CEM + CEM-SS	1 µg/mL	63%
O=C1N=C2SC=C(NC(=S)Nc3ccccc3)N2NC12c1ccccc1-c1ccccc12	cytopathic effect / XTT			CEM	20 µM	36.36%
CCCCCCCCCCCCCC=O	RT activity		IIIB	H9	10 µg/mL	74%
S=C1NNC2(C(=S)N1)c1ccccc1-c1ccccc12	cytopathic effect / XTT			CEM	0.63 µM	10.22%
CCCCCCCCCCCCC(Br)C(=O)OC[C@H]1O[C@@H](n2cc(C)c(=O)[nH]c2=O)CC1O	cytopathic effect / XTT			CEM	20 µM	9.9%
O=c1ccn(C2C[C@H](CO)[C@@H](CO)C2)c(=O)[nH]1	RT activity		IIIB	H9	10 µg/mL	23%

Repeating the final 8 entries:

| SMILES | method | mutations | strain or isolate | cells | tested at | result |
|---|---|---|---|---|---|---|
| C[C@H](CCC(=O)N[C@@H](Cc1cc(I)c(O)cc1I)C(=O)O)[C@H]1CC[C@H]2[C@@H]3CCC4C[C@H](O)CC[C@]4(C)[C@H]3C[C@H](O)[C@]12C | syncytia |  | IIIB | H9 | 0.001 µg/mL | 67.4% |
| Nc1ncnc2c1ncn2C1CC(CO)C1 | cytopathic effect |  | IIIB | ATH8 | 20 µM | 0% |
| CC1C[C@H](O)[C@@H](O)CN1Cc1ccccc1 | cytopathic effect |  | BRU | CEM + CEM-SS | 1 µg/mL | 63% |
| O=C1N=C2SC=C(NC(=S)Nc3ccccc3)N2NC12c1ccccc1-c1ccccc12 | cytopathic effect / XTT |  |  | CEM | 20 µM | 36.36% |
| CCCCCCCCCCCCCC=O | RT activity |  | IIIB | H9 | 10 µg/mL | 74% |
| S=C1NNC2(C(=S)N1)c1ccccc1-c1ccccc12 | cytopathic effect / XTT |  |  | CEM | 0.63 µM | 10.22% |
| CCCCCCCCCCCCC(Br)C(=O)OC[C@H]1O[C@@H](n2cc(C)c(=O)[nH]c2=O)CC1O | cytopathic effect / XTT |  |  | CEM | 20 µM | 9.9% |
| O=c1ccn(C2C[C@H](CO)[C@@H](CO)C2)c(=O)[nH]1 | RT activity |  | IIIB | H9 | 10 µg/mL | 23% |